Patent publication US20110186731A1, “LCMS TECHNOLOGY AND ITS USES” (priority 2008, published 2011)

What follows are substances tested on HLA-DR (assay: Semiquantification of Neisseria meningitidis OMV-derived HLA-DR epitopes on pulsed MDDC (approach F)). Conditions: PorA-derived epitopes; HLA-DR1 or HLA-DR2 MDDC pulsed with P1.7-2.4 or P1.5-2.10 OMV.
Type: cell-based, human
For “LAGEFGTLRAGRVAN (listed as Neisseria meningitidis) [SEQ ID NO: 83]”, the “Abundance (copies/cell)” value was 300 copies/cell.
For “LAGEFGTLRAGRVANQ (listed as Neisseria meningitidis) [SEQ ID NO: 82]”, the “Abundance (copies/cell)” value was 750-3,500 copies/cell.
For “AGEFGTLRAGRVAN (listed as Neisseria meningitidis) [SEQ ID NO: 85]”, the “Abundance (copies/cell)” value was 2,500 copies/cell.
For “DVSLYGEIKAGVEGRNYQ (listed as Neisseria meningitidis) [SEQ ID NO: 76]”, the “Abundance (copies/cell)” value was 50-1,440 copies/cell.
“GKPGSDVYYAGLNYKNGGFAGNYAFKYARHANVG (listed as Neisseria meningitidis) [SEQ ID NO: 96]” was tested, and the “Abundance (copies/cell)” value was 2,100 copies/cell.
For “YTQINAASVGLRHKF (listed as Neisseria meningitidis) [SEQ ID NO: 110]”, the “Abundance (copies/cell)” value was 3,500-13,000 copies/cell.
For “GEFGTLRAGRVAN (listed as Neisseria meningitidis) [SEQ ID NO: 89]”, the “Abundance (copies/cell)” value was 1,000 copies/cell.
In the case of “IGNYTQINAASVGL (listed as Neisseria meningitidis) [SEQ ID NO: 107]”, the “Abundance (copies/cell)” value is reported as 30-800 copies/cell.
With “TKISDFGSFIGFKG (listed as Neisseria meningitidis) [SEQ ID NO: 79]” the “Abundance (copies/cell)” value was 60 copies/cell.
In the case of “IGNYTQINAASVGLR (listed as Neisseria meningitidis) [SEQ ID NO: 106]”, the “Abundance (copies/cell)” value is reported as 300-3,500 copies/cell.
“LAGEFGTLRAGRVANQF (listed as Neisseria meningitidis) [SEQ ID NO: 81]” was tested, and the “Abundance (copies/cell)” value was 75 copies/cell.
For “NYTQINAASVGLRHKF (listed as Neisseria meningitidis) [SEQ ID NO: 109]”, the “Abundance (copies/cell)” value was 1,070-1,850 copies/cell.
With “IRTKISDFGSFIGFKG (listed as Neisseria meningitidis) [SEQ ID NO: 77]” the “Abundance (copies/cell)” value was 580-1,000 copies/cell.
With “KPGSDVYYAGLNYKNGGFAGNYAFKYARHAN (listed as Neisseria meningitidis) [SEQ ID NO: 99]” the “Abundance (copies/cell)” value was 520 copies/cell.
For “GEFGTLRAGRVANQF (listed as Neisseria meningitidis) [SEQ ID NO: 87]”, the “Abundance (copies/cell)” value was 750 copies/cell.
“SPDFSGFSGSVQFVPIQNSK (listed as Neisseria meningitidis) [SEQ ID NO: 95]” was tested, and the “Abundance (copies/cell)” value was 50 copies/cell.
For “DVSLYGEIKAGVEGRNIQ (listed as Neisseria meningitidis) [SEQ ID NO: 74]”, the “Abundance (copies/cell)” value was 2,800-16,890 copies/cell.
In the case of “LAGEFGTLRAGRVANQFD (listed as Neisseria meningitidis) [SEQ ID NO: 80]”, the “Abundance (copies/cell)” value is reported as 25 copies/cell.
“DVSLYGEIKAGVEGRNIQLQ (listed as Neisseria meningitidis) [SEQ ID NO: 73]” was tested, and the “Abundance (copies/cell)” value was 1,700-7,420 copies/cell.
“GKPGSDVYYAGLNYKNGGFAGNYAFKYARHANV (listed as Neisseria meningitidis) [SEQ ID NO: 97]” was tested, and the “Abundance (copies/cell)” value was 920 copies/cell.
With “FGTLRAGRVANQ (listed as Neisseria meningitidis) [SEQ ID NO: 91]” the “Abundance (copies/cell)” value was 75 copies/cell.
In the case of “RNTGIGNYTQINAASVG (listed as Neisseria meningitidis) [SEQ ID NO: 102]”, the “Abundance (copies/cell)” value is reported as 20-60 copies/cell.
For “GIGNYTQINAASVGLR (listed as Neisseria meningitidis) [SEQ ID NO: 104]”, the “Abundance (copies/cell)” value was 200-1,500 copies/cell.
In the case of “SPEFSGFSGSVQFVPAQNSK (listed as Neisseria meningitidis) [SEQ ID NO: 94]”, the “Abundance (copies/cell)” value is reported as 970 copies/cell.
For “GIGNYTQINAASVG (listed as Neisseria meningitidis) [SEQ ID NO: 105]”, the “Abundance (copies/cell)” value was 80-150 copies/cell.
With “RHDDMoxSVSVRYD (RHDDMSVSVRYD; oxidized methionine; (5)..(5) oxidized methionine; listed as Neisseria meningitidis) [SEQ ID NO: 93]” the “Abundance (copies/cell)” value was 170 copies/cell.
With “TSYDQIIAGVDYDFSKRTSAIVSGAWLKRNTG (listed as Neisseria meningitidis) [SEQ ID NO: 101]” the “Abundance (copies/cell)” value was 1,800 copies/cell.
“GEFGTLRAGRVANQ (listed as Neisseria meningitidis) [SEQ ID NO: 88]” was tested, and the “Abundance (copies/cell)” value was 100-3,600 copies/cell.

Same assay, conditions: non-PorA derived epitopes; OMV pulsed MDDC
With “YVQADAAHAKA (listed as Neisseria meningitidis) [SEQ ID NO: 117]” the “Abundance (copies/cell)” value was 380 copies/cell.
“MAQYDRLGLTRSNTSC (listed as Neisseria meningitidis) [SEQ ID NO: 130]” was tested, and the “Abundance (copies/cell)” value was 50 copies/cell.
“IKNHGYELGASYRTGGLTAKVGVSHSKPRFY (listed as Neisseria meningitidis) [SEQ ID NO: 119]” was tested, and the “Abundance (copies/cell)” value was 6,290 copies/cell.
With “INNYYWHAFAREKGVQ (listed as Neisseria meningitidis) [SEQ ID NO: 113]” the “Abundance (copies/cell)” value was 150 copies/cell.
In the case of “DGSRSPYYVQADLAYAAERITHD (listed as Neisseria meningitidis) [SEQ ID NO: 129]”, the “Abundance (copies/cell)” value is reported as 70 copies/cell.
With “HDHIIVTLKNHTLPT (listed as Neisseria meningitidis) [SEQ ID NO: 131]” the “Abundance (copies/cell)” value was 330 copies/cell.
For “LPGVGRDVRLGVNYKF (listed as Neisseria meningitidis) [SEQ ID NO: 121]”, the “Abundance (copies/cell)” value was 9,610 copies/cell.
For “EGASGFYVQADAAHAKASSS (listed as Neisseria meningitidis) [SEQ ID NO: 114]”, the “Abundance (copies/cell)” value was 80 copies/cell.
In the case of “ADRYIFAPAARGYRK (listed as Neisseria meningitidis) [SEQ ID NO: 134]”, the “Abundance (copies/cell)” value is reported as 240 copies/cell.
With “DDKLAFAKETGADLVVN (listed as Neisseria meningitidis) [SEQ ID NO: 132]” the “Abundance (copies/cell)” value was 70 copies/cell.
With “KAFYQRQLAVAVKR (listed as Neisseria meningitidis) [SEQ ID NO: 124]” the “Abundance (copies/cell)” value was 790 copies/cell.
“DKKVFTDARAVSTRQD (listed as Neisseria meningitidis) [SEQ ID NO: 133]” was tested, and the “Abundance (copies/cell)” value was 70 copies/cell.
With “YVQADAAHAKAS (listed as Neisseria meningitidis) [SEQ ID NO: 116]” the “Abundance (copies/cell)” value was 380 copies/cell.
For “VGRDVRLGVNYKF (listed as Neisseria meningitidis) [SEQ ID NO: 122]”, the “Abundance (copies/cell)” value was >2,000 copies/cell.
“KAFYQRQLAVAVKRA (listed as Neisseria meningitidis) [SEQ ID NO: 123]” was tested, and the “Abundance (copies/cell)” value was 70 copies/cell.
For “AANLLEPLPASTINET (listed as Neisseria meningitidis) [SEQ ID NO: 111]”, the “Abundance (copies/cell)” value was 30 copies/cell.
“DPGALVTYSGAAVLK (listed as Neisseria meningitidis) [SEQ ID NO: 112]” was tested, and the “Abundance (copies/cell)” value was 80 copies/cell.
In the case of “IKNHGYELGASYRTGGLTAKVGVSHSKPRF (listed as Neisseria meningitidis) [SEQ ID NO: 120]”, the “Abundance (copies/cell)” value is reported as 2,320 copies/cell.
With “RSSYAAEGAALSAQ (listed as Neisseria meningitidis) [SEQ ID NO: 126]” the “Abundance (copies/cell)” value was 30 copies/cell.
In the case of “PRVFGSVSRGDDTENSDIDLLVDAKTGTTLLDLG (listed as Neisseria meningitidis) [SEQ ID NO: 128]”, the “Abundance (copies/cell)” value is reported as 550 copies/cell.

No dose or concentration is given here for some results.
